Reference: PubChem BioAssay AID624099 (ICCB-Longwood, 2012)

Assay: 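Knock-downs relieving repression by E2 of an HPV18 LCR luciferase reporter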 (primary screen)
Cell system: human C33A cervical carcinoma cells (HPV-negative) stably expressing BPV1 E2 and an HPV18 LCR luciferase reporter
Reagent: siRNA pool against human genes, 40 nM
Time to read-out: 72 h
Measurement: 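HPV18 LCR reporter light per well, converted to plate-wise z-scores that exclude control wells, and averaged over triplicate plates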
Scale: mean z-score and z-score: higher = stronger reporter signal, weaker E2 silencing
Call rule: 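Mean z ≥ 2 together with z ≥ 2 in two or more of the three replicates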
The whole screen tested about 21,000 reagents; this is a random part of them. In the full data, 497 (2.4%) were called active. 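Higher z means weaker E2 silencing; only reporter increases were scored, and knock-downs that hurt cell survival may mask genuine repressor factors.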 A number with no mark means an inactive call. The numbers tell different reagents against one gene apart. Reagent sequences are not shown.

gene knocked down | reagent | mean z-score | z-score, replicate A | z-score, replicate B | z-score, replicate C
BCAT2 (branched chain amino acid transaminase 2) | 1 | 1.33 | 1.53 | 1.46 | 1
CERKL (CERK like autophagy regulator) | 1 | -1.18 | -0.85 | -1.46 | -1.24
RFC2 (replication factor C subunit 2) | 1 | 0.21 | -0.16 | 0.16 | 0.63
RIPPLY3 (ripply transcriptional repressor 3) | 1 | 1.2 | 1.09 | 1.49 | 1.03
TOR2A (torsin family 2 member A) | 1 | -0.13 | -0.04 | -0.34 | -0.02
COL4A4 (collagen type IV alpha 4 chain) | 1 | 0.11 | 0.14 | -0.01 | 0.2
LOC390550 (retired record) | 1 | 0.39 | 0.55 | 0.2 | 0.4
CXCR5 (C-X-C motif chemokine receptor 5) | 1 | 1.07 | 1.24 | 0.91 | 1.07
PLCG2 (phospholipase C gamma 2) | 1 | -0.89 | -1.11 | -0.81 | -0.76
LILRB5 (leukocyte immunoglobulin like receptor B5) | 1 | -0.22 | -0.21 | -0.36 | -0.1
LOC400748 | 1 | -0.93 | -0.69 | -0.91 | -1.19
ENO2 (enolase 2) | 1 | 1.73 | 1.58 | 1.77 | 1.84
SOX7 (SRY-box transcription factor 7) | 1 | 0.11 | 0.16 | 0.16 | 0.01
SMC1B (structural maintenance of chromosomes 1B) | 1 | 0.24 | 0.7 | 0.38 | -0.37
LRRC8A (leucine rich repeat containing 8 VRAC subunit A) | 1 | -0.84 | -1.08 | -0.5 | -0.94
SGTA | 1 | 0.41 | 0.54 | 0.16 | 0.53
DARS2 (aspartyl-tRNA synthetase 2, mitochondrial) | 1 | -0.83 | -1.24 | -0.94 | -0.32
LINC01465 (long independently transcribed non-coding RNA 1465) | 1 | 0.18 | -0.06 | -0.04 | 0.63
NIN (ninein) | 1 | 2.52 (active) | 2.95 | 2.54 | 2.08
DMRTA2 (DMRT like family A2) | 1 | 0.29 | 0.18 | 0.31 | 0.37
RPS7 (ribosomal protein S7) | 1 | -1.88 | -1.97 | -1.97 | -1.71
UBTF (upstream binding transcription factor) | 1 | 0.63 | 0.43 | 0.58 | 0.9
COPS8-DT (COPS8 divergent transcript) | 1 | -1.46 | -1.22 | -1.54 | -1.62
CPA1 (carboxypeptidase A1) | 1 | 0.88 | 0.61 | 1.08 | 0.94
CCR7 (C-C motif chemokine receptor 7) | 1 | 1.49 | 1.61 | 1.23 | 1.62
CYP4F24P (cytochrome P450 family 4 subfamily F member 24, pseudogene) | 1 | -0.01 | 0.09 | -0.09 | -0.03
KEL (Kell metallo-endopeptidase (Kell blood group)) | 1 | -0.71 | -0.72 | -0.91 | -0.49
PPP1R21 (protein phosphatase 1 regulatory subunit 21) | 1 | -1.89 | -1.93 | -1.93 | -1.81
RPL13P12 (ribosomal protein L13 pseudogene 12) | 1 | -2.98 | -2.68 | -3.43 | -2.83
CLCN2 (chloride voltage-gated channel 2) | 1 | 1.02 | 1.03 | 0.85 | 1.17
CBX1 (chromobox 1) | 1 | -0.4 | -0.51 | -0.38 | -0.31
SLC9C1 | 1 | -0.1 | -0.42 | 0.14 | -0.02
MTFR2 (mitochondrial fission regulator 2) | 1 | 0.33 | 0.52 | 0.34 | 0.11
SNX3 (sorting nexin 3) | 1 | -0.03 | -0.05 | 0.04 | -0.09

Laid out differently: 6 of the entries above
{"gene knocked down": "CXCR5 (C-X-C motif chemokine receptor 5)", "reagent": 1, "mean z-score": 1.07, "z-score, replicate A": 1.24, "z-score, replicate B": 0.91, "z-score, replicate C": 1.07}
{"gene knocked down": "PLCG2 (phospholipase C gamma 2)", "reagent": 1, "mean z-score": -0.89, "z-score, replicate A": -1.11, "z-score, replicate B": -0.81, "z-score, replicate C": -0.76}
{"gene knocked down": "LILRB5 (leukocyte immunoglobulin like receptor B5)", "reagent": 1, "mean z-score": -0.22, "z-score, replicate A": -0.21, "z-score, replicate B": -0.36, "z-score, replicate C": -0.1}
{"gene knocked down": "LOC400748", "reagent": 1, "mean z-score": -0.93, "z-score, replicate A": -0.69, "z-score, replicate B": -0.91, "z-score, replicate C": -1.19}
{"gene knocked down": "ENO2 (enolase 2)", "reagent": 1, "mean z-score": 1.73, "z-score, replicate A": 1.58, "z-score, replicate B": 1.77, "z-score, replicate C": 1.84}
{"gene knocked down": "SOX7 (SRY-box transcription factor 7)", "reagent": 1, "mean z-score": 0.11, "z-score, replicate A": 0.16, "z-score, replicate B": 0.16, "z-score, replicate C": 0.01}

Continued:
gene knocked down | reagent | mean z-score | z-score, replicate A | z-score, replicate B | z-score, replicate C
LINC03033 (long independently transcribed non-coding RNA 3033) | 1 | 0.46 | 0.78 | 0.39 | 0.22
LINC03033 (long independently transcribed non-coding RNA 3033) | 2 | 0.47 | 0.63 | 0.34 | 0.44
LOC284134 (retired record) | 1 | -0.46 | -0.68 | -0.39 | -0.3
TMEM151A (transmembrane protein 151A) | 1 | 0.45 | 0.49 | 0.39 | 0.47
ASIC5 (acid sensing ion channel subunit family member 5) | 1 | 1.19 | 1.37 | 1.27 | 0.94
KRR1 (KRR1 small subunit processome component) | 1 | -1.07 | -0.75 | -1.43 | -1.03
LENEP (lens epithelial protein) | 1 | -0.38 | -0.9 | -0.13 | -0.1
PANK2 (pantothenate kinase 2) | 1 | -0.72 | -0.64 | -0.84 | -0.68
ZRSR2P1 (ZRSR2 pseudogene 1) | 1 | -0.11 | -0.14 | -0.11 | -0.07
ENTREP1 (endosomal transmembrane epsin interactor 1) | 1 | -0.37 | -0.45 | -0.12 | -0.55
NCAPH2 (non-SMC condensin II complex subunit H2) | 1 | 1.71 | 1.8 | 1.76 | 1.56
LOC392666 (retired record) | 1 | -0.63 | -0.64 | -0.48 | -0.76
FHOD1 (formin homology 2 domain containing 1) | 1 | 1.26 | 1.14 | 1.44 | 1.2
RAB22A (RAB22A, member RAS oncogene family) | 1 | 0.04 | 0.21 | 0.13 | -0.22
EPS15 (epidermal growth factor receptor pathway substrate 15) | 1 | 0.09 | 0.4 | -0.07 | -0.07
PCDH15 (protocadherin related 15) | 1 | 0.77 | 0.81 | 0.45 | 1.05
PCDH15 (protocadherin related 15) | 2 | -0.02 | -0.04 | 0.09 | -0.09
FBL (fibrillarin rRNA 2'-O-methyltransferase) | 1 | -1.81 | -1.49 | -1.96 | -1.97
OR2B2 (olfactory receptor family 2 subfamily B member 2) | 1 | -0.33 | -0.24 | -0.32 | -0.44
HOATZ (HOATZ cilia and flagella associated protein) | 1 | -0.92 | -0.59 | -1.02 | -1.16
OR10A3 (olfactory receptor family 10 subfamily A member 3) | 1 | 0.84 | 0.98 | 0.83 | 0.7
GARIN2 (golgi associated RAB2 interactor family member 2) | 1 | -0.62 | -0.68 | -0.18 | -1.02
TMEM26 (transmembrane protein 26) | 1 | -0.47 | -0.86 | -0.27 | -0.29
